In patent US20070184519A1 (published 2007):

T1: HLA-DR DRB1*0404 (human)
T1 chain 1: not shown
T1 chain 2: not shown

T2: HLA-DR DRB5*0101 (human)
T2 chain 1: not shown
T2 chain 2: not shown

T3: HLA-DR DRB1*0802 (human)
T3 chain 1: not shown
T3 chain 2: not shown

T4: HLA-DR DRB1*1101 (human)
T4 chain 1: not shown
T4 chain 2: not shown

T5: HLA-DR DRB1*0101 (human)
T5 chain 1: not shown
T5 chain 2: not shown

T6: HLA-DR DRB1*0401 (human)
T6 chain 1: not shown
T6 chain 2: not shown

T7: HLA-DR DRB1*1302 (human)
T7 chain 1: not shown
T7 chain 2: not shown

T8: HLA-DR DRB4*0101 (human)
T8 chain 1: not shown
T8 chain 2: not shown

T9: HLA-DR DRB3*0101 (human)
T9 chain 1: not shown
T9 chain 2: not shown

T10: HLA-DR DRB1*0901 (human)
T10 chain 1: not shown
T10 chain 2: not shown


Assays:
Assay in all cases: competition with 125I probe, purified MHC II
[1] = molecular target: T1, HLA-DR DRB1*0404 (human)
[2] = molecular target: T2, HLA-DR DRB5*0101 (human)
[3] = molecular target: T3, HLA-DR DRB1*0802 (human)
[4] = molecular target: T4, HLA-DR DRB1*1101 (human)
[5] = molecular target: T5, HLA-DR DRB1*0101 (human)
[6] = molecular target: T6, HLA-DR DRB1*0401 (human)
[7] = molecular target: T7, HLA-DR DRB1*1302 (human)
[8] = molecular target: T8, HLA-DR DRB4*0101 (human)
[9] = molecular target: T9, HLA-DR DRB3*0101 (human)
[10] = molecular target: T10, HLA-DR DRB1*0901 (human)

Binder	IC50 [1]	IC50 [2]	IC50 [3]	IC50 [4]	IC50 [5]	IC50 [6]	IC50 [7]	IC50 [8]	IC50 [9]	IC50 [10]
GYKVLVLNPSVAAT (modifications not checked) [HCV.NS3.1248]	33 nM	3700 nM	63 nM	75 nM	1.4 nM	7.5 nM	8.6 nM	–	–	–
PLGFFPDHQLDPAFGANSNNPDWDFNP (modifications not checked) [HBV Pre S1 21-47]	–	–	–	–	–	–	–	3140 nM	311 nM	15700 nM
